Measurements published in US20230097866A1.

Tested on: S. aureus ATCC 29213
Assay: MIC, CLSI broth microdilution, S. aureus ATCC 29213
Format: cell-based, Staphylococcus aureus

| SMILES | MIC ATCC 29213 [µg/mL] |
| --- | --- |
| COc1ccc2ncc(F)c(CC[C@]3(O)CC[C@@H](NCc4ccc5c(c4)OCCO5)CC3)c2n1 (relative stereo) | 0.063 (≈ 0.135 µM) |
| COc1ccc2ncc(F)c(CC[C@]3(O)CC[C@H](NCc4ccc(Cl)c(Cl)c4)CC3)c2n1 (relative stereo) | 0.125 (≈ 0.261 µM) |
| COc1ccc2ncc(F)c(CC[C@]3(O)CC[C@H](NCc4ccc5c(c4)OCCO5)CC3)c2n1 (relative stereo) | 1 (≈ 2.14 µM) |

Converted amounts (≈) assume the structure as drawn.
